Pooled drug test results. Numbers come from NIAID ChemDB, via PubChem.

Common to all: growth or infection tests; species: Mycobacterium avium intracellulare; endpoint: MIC

Conditions beyond the fields shown may differ between rows.

smiles,strain,result
CC[C@H]1OC(=O)[C@H](C)[C@@H](O[C@H]2C[C@@](C)(OC)[C@@H](OC(C)=O)[C@H](C)O2)[C@H](C)[C@@H](OC2O[C@H](C)C[C@H](N(C)C)[C@H]2OC(=O)NCCCCCCCCCCCCCCN(C)C)C(C)(O)C[C@@H](C)/C(=N\OCCCC2CCCCC2)[C@H](C)[C@@H](O)[C@]1(C)O,20073,0.78 µg/mL
CC[C@H]1OC(=O)[C@H](C)[C@@H](O[C@H]2C[C@@](C)(OC)[C@@H](OC(C)=O)[C@H](C)O2)[C@H](C)[C@@H](O[C@@H]2O[C@H](C)C[C@H](N(C)C)[C@H]2O)C(C)(O)C[C@@H](C)/C(=N\OCCCCCc2ccccc2)[C@H](C)[C@@H](O)[C@]1(C)O,20066 (clarithromycin-susceptible),1.56 µg/mL
CO[C@H]1/C=C/O[C@@]2(C)Oc3c(C)c(O)c4c(=O)c(c5oc6cc(N7CCN(CC(C)C)CC7)cc(=O)c6nc5c4c3=C2O)NC(=O)/C(C)=C\C=C\[C@H](C)[C@H](O)[C@@H](C)[C@@H](O)[C@@H](C)[C@H](OC(C)=O)[C@@H]1C,N-486 (HIV-),≤0.0125 µg/mL
CC[C@H]1OC(=O)[C@H](C)[C@@H](O[C@H]2C[C@@](C)(OC)[C@@H](OC(C)=O)[C@H](C)O2)[C@H](C)[C@@H](OC2O[C@H](C)C[C@H](N(C)C)[C@H]2OC(N)=O)C(C)(O)C[C@@H](C)/C(=N\OCCCC2CCCCC2)[C@H](C)[C@@H](O)[C@]1(C)O,20075,3.13 µg/mL
C[C@@H]1CN(c2c(F)c(N)c3c(=O)c(C(=O)O)cn(C4CC4)c3c2F)C[C@H](C)N1,N-752 (HIV-),0.5 µg/mL
CC(C)N=c1cc2n(-c3ccc(Cl)cc3)c3ccccc3nc-2cc1Nc1ccc(Cl)cc1,98562,0.5 µg/mL
CCCCCNC(=O)O[C@H]1C(O[C@@H]2[C@@H](C)[C@H](O[C@H]3C[C@@](C)(OC)[C@@H](OC(C)=O)[C@H](C)O3)[C@@H](C)C(=O)O[C@H](CC)[C@@](C)(O)[C@H](O)[C@@H](C)/C(=N/OCCCC3CCCCC3)[C@H](C)CC2(C)O)O[C@H](C)C[C@@H]1N(C)C,20073,0.2 µg/mL
CC[C@H]1OC(=O)[C@H](C)[C@@H](O[C@H]2C[C@@](C)(OC)[C@@H](O)[C@H](C)O2)[C@H](C)[C@@H](O[C@@H]2O[C@H](C)C[C@H](N(C)C)[C@H]2O)[C@](C)(OC)C[C@@H](C)C(=O)[C@H](C)[C@@H](O)[C@]1(C)O,N-475 (HIV-),0.125 µg/mL
CC[C@H]1OC(=O)[C@H](C)[C@@H](OC2C[C@@](C)(OC)[C@@H](OC(=O)CC3CCCCC3)[C@H](C)O2)[C@H](C)[C@@H](O[C@@H]2O[C@H](C)C[C@H](N(C)C)[C@H]2O)C(C)(O)C[C@@H](C)/C(=N\OCCCOc2ccccc2)[C@H](C)[C@@H](O)[C@]1(C)O,20066 (clarithromycin-susceptible),1.56 µg/mL
CC[C@H]1OC(=O)[C@H](C)[C@@H](O[C@H]2C[C@@](C)(OC)[C@@H](OC(C)=O)[C@H](C)O2)[C@H](C)[C@@H](OC2O[C@H](C)C[C@H](N(C)C)[C@H]2OC(=O)NC)C(C)(O)C[C@@H](C)/C(=N\OCCCC2CCCCC2)[C@H](C)[C@@H](O)[C@]1(C)O,20066,3.13 µg/mL
CC[C@H]1OC(=O)[C@H](C)[C@@H](O[C@H]2C[C@@](C)(OC)[C@@H](OC(C)=O)[C@H](C)O2)[C@H](C)[C@@H](O[C@@H]2O[C@H](C)C[C@H](N(C)C)[C@H]2O)C(C)(O)C[C@@H](C)/C(=N\OCCCOc2ccccc2)[C@H](C)[C@@H](O)[C@]1(C)O,20066 (clarithromycin-susceptible),0.78 µg/mL
CCNC(=O)O[C@H]1C(O[C@@H]2[C@@H](C)[C@H](O[C@H]3C[C@@](C)(OC)[C@@H](OC(C)=O)[C@H](C)O3)[C@@H](C)C(=O)O[C@H](CC)[C@@](C)(O)[C@H](O)[C@@H](C)/C(=N/OCCCC3CCCCC3)[C@H](C)CC2(C)O)O[C@H](C)C[C@@H]1N(C)C,20067,6.25 µg/mL
CC[C@H]1OC(=O)[C@H](C)[C@@H](O[C@H]2C[C@@](C)(OC)[C@@H](OC(C)=O)[C@H](C)O2)[C@H](C)[C@@H](O[C@@H]2O[C@H](C)C[C@H](N(C)C)[C@H]2OC(=O)NNCCc2ccccc2)C(C)(O)C[C@@H](C)/C(=N\OCCCC2CCCCC2)[C@H](C)[C@@H](O)[C@]1(C)O,20066 (clarithromycin-susceptible),0.78 µg/mL
NNC(=O)c1ccncc1,N-897 (HIV-),16 µg/mL
CO[C@H]1/C=C/O[C@@]2(C)Oc3c(C)c(O)c4c(O)c(c(/C=N/N5CCN(C6CCCC6)CC5)c(O)c4c3C2=O)NC(=O)/C(C)=C\C=C\[C@H](C)[C@H](O)[C@@H](C)[C@@H](O)[C@@H](C)[C@H](OC(C)=O)[C@@H]1C,141,2 µg/mL
CC[C@H]1OC(=O)[C@H](C)[C@@H](O[C@H]2C[C@@](C)(OC)[C@@H](OC(C)=O)[C@H](C)O2)[C@H](C)[C@@H](O[C@@H]2O[C@H](C)C[C@H](N(C)C)[C@H]2OC(=O)NNC)C(C)(O)C[C@@H](C)/C(=N\OCCCC2CCCCC2)[C@H](C)[C@@H](O)[C@]1(C)O,20066 (clarithromycin-susceptible),0.78 µg/mL

2 of the rows above, restated:

CC[C@H]1OC(=O)[C@H](C)[C@@H](O[C@H]2C[C@@](C)(OC)[C@@H](OC(C)=O)[C@H](C)O2)[C@H](C)[C@@H](OC2O[C@H](C)C[C@H](N(C)C)[C@H]2OC(=O)NC)C(C)(O)C[C@@H](C)/C(=N\OCCCC2CCCCC2)[C@H](C)[C@@H](O)[C@]1(C)O ; strain: 20066 ; result: 3.13 µg/mL
NNC(=O)c1ccncc1 ; strain: N-897 (HIV-) ; result: 16 µg/mL